SMILES strings stand for the structures. Where “and” joins values, the source holds several entries; their conditions need not be identical. Equal entries are not always repeated.

The data set concerns HIV-1 IIIB. Briefly: Syncytia assay (anti-HIV-1 activity in acutely infected C8166 cells). Conditions: CC50 value/EC50 value. Format: cell-based. As for the experimental part: Cell line (C8166) and the laboratory-derived virus (HIV-1 IIIB) were obtained from the MRC, AIDS Reagent Project, London, UK. C8166 was maintained in RPMI-1640 supplemented with 10% heat-inactivated new born calf serum (Gibco, USA). The cells used in all experiments were in log-phase growth. The 50% HIV-1 IIIB tissue culture infectious dose (TCID50) in C8166 cells was determined and calculated by the Reed and Muench method. Virus stocks were stored in small aliquots at −70 °C [11].
In the presence of 100 μL of various concentrations of compounds, C8166 cells (4 × 10^5/mL) were infected with virus HIV-1IIIB at a multiplicity of infection (M.O.I) of 0.06. The final volume per well was 200 μL. Control assays were performed without the testing compounds in HIV-1IIIB infected and uninfected cultures. After 3 days of culture, the cytopathic effect (CPE) was measured by counting the number of syncytia. Percentage inhibition of syncytia formation was calculated and 50% effective concentration (EC50) was calculated. AZT (Sigma, USA) was used as a positive control. Therapeutic index (TI) = CC50/EC50 [13].
Regarding `Cc1ccc2c(C(=O)CN3CCOCC3)cn(S(=O)(=O)c3ccccc3)c2c1` [Compound 4b, N-Phenylsulfonyl-3-[2-morpholinoethanone]-6-methylindole], the “TI (in vitro therapeutic index)” value is listed as above 8.87. Regarding `CCCCNCC(=O)c1cn(S(=O)(=O)c2ccccc2)c2cc(C)ccc12` [Compound 4e, N-Phenylsulfonyl-3-[2-butylaminoethanone]-6-methylindole], the “TI (in vitro therapeutic index)” value is listed as 1.46. Consider `Cc1ccc2c(C(=O)CN3CCCC3)cn(S(=O)(=O)c3ccccc3)c2c1` [Compound 4c, N-Phenylsulfonyl-3-[2-pyrrolidinoethanone]-6-methylindole], for which the “TI (in vitro therapeutic index)” value was found to be 2.12. As to `Cc1ccc2c(C(=O)CN3CCCCC3)cn(S(=O)(=O)c3ccccc3)c2c1` [Compound 4a, N-Phenylsulfonyl-3-[2-piperidinylethanone]-6-methylindole], the “TI (in vitro therapeutic index)” value was > 15.38 and 15.38. The same measure for `CCc1ccc(S(=O)(=O)n2cc(C(=O)CSc3nnc(-c4ccccc4)o3)c3ccc(C)cc32)cc1` [Compound 6, N-(p-Ethyl)phenylsulfonyl-3-[2-(5-phenyl-1,3,4-oxadiazole-2-yl-thio)ethanone]-6-methylindole]: 66.95.

Turning to `CCc1ccc(S(=O)(=O)n2cc(C(=O)CN3CCOCC3)c3ccc(C)cc32)cc1` [Compound 4f, N-(p-Ethyl)phenylsulfonyl-3-[2-morpholinoethanone]-6-methylindole], the “TI (in vitro therapeutic index)” value is on record as above 49.77. The same measure for `Cc1ccc2c(C(=O)CN(C(C)C)C(C)C)cn(S(=O)(=O)c3ccccc3)c2c1` [Compound 4d, N-Phenylsulfonyl-3-[2-diisopropylaminoethanone]-6-methylindole]: 12.26. The same measure for `Cc1cn([C@H]2C[C@H](N=[N+]=[N-])[C@@H](CO)O2)c(=O)[nH]c1=O` [AZT, 3'-azido-3'-deoxythymidine, reference compound]: 351801.98.
